In ChEMBL document CHEMBL5390309, “Characterization of 2,4-Dianilinopyrimidines Against Five P. falciparum Kinases PfARK1, PfARK3, PfNEK3, PfPK9, and PfPKB” (2023):

Assays:
Plasmodium falciparum [1] = assay: Inhibition of Plasmodium falciparum ARK1 assessed as remaining activity at 1 uM incubated for 2 hrs by luciferin-reagent based luminometer analysis relative to control
Plasmodium falciparum [2] = assay: Inhibition of Plasmodium falciparum PK9 assessed as remaining activity at 1 uM incubated for 2 hrs by luciferin-reagent based luminometer analysis relative to control
Plasmodium falciparum [3] = assay: Inhibition of Plasmodium falciparum ARK3 assessed as remaining activity at 1 uM incubated for 2 hrs by luciferin-reagent based luminometer analysis relative to control
Plasmodium falciparum [4] = assay: Inhibition of Plasmodium falciparum NEK3 assessed as remaining activity at 1 uM incubated for 2 hrs by luciferin-reagent based luminometer analysis relative to control
Plasmodium falciparum [5] = assay: Inhibition of Plasmodium falciparum PKB assessed as remaining activity at 1 uM incubated for 2 hrs by luciferin-reagent based luminometer analysis relative to control
Plasmodium falciparum [6] = assay: Inhibition of Plasmodium falciparum CDPK2 assessed as remaining activity at 1 uM incubated for 2 hrs by luciferin-reagent based luminometer analysis relative to control
Plasmodium falciparum [7] = assay: Inhibition of Plasmodium falciparum NEK1 assessed as remaining activity at 1 uM incubated for 2 hrs by luciferin-reagent based luminometer analysis relative to control
Plasmodium falciparum [8] = assay: Inhibition of Plasmodium falciparum CDPK5 assessed as remaining activity at 1 uM incubated for 2 hrs by luciferin-reagent based luminometer analysis relative to control

| SMILES | Activity (Plasmodium falciparum [1]) [%] | Activity (Plasmodium falciparum [2]) [%] | Activity (Plasmodium falciparum [3]) [%] | Activity (Plasmodium falciparum [4]) [%] | Activity (Plasmodium falciparum [5]) [%] | Activity (Plasmodium falciparum [6]) [%] | Activity (Plasmodium falciparum [7]) [%] | Activity (Plasmodium falciparum [8]) [%] |
| --- | --- | --- | --- | --- | --- | --- | --- | --- |
| COc1cc(N2CCOCC2)ccc1Nc1ncc(C(N)=O)c(Nc2ccccc2NS(C)(=O)=O)n1 | 39 | 19 | 93 | 51 | 29 |  |  |  |
| COc1cc(N2CCOCC2)ccc1Nc1ncc(Cl)c(Nc2ccccc2NS(C)(=O)=O)n1 | 53 | 43 | 50 | 34 | 11 | 78 | 85 | 97 |
| COc1cc(N2CCOCC2)ccc1Nc1ncnc(Nc2ccccc2NS(C)(=O)=O)n1 | 95 | 100 | 100 | 82 | 78 |  |  |  |
| COc1cc(N2CCOCC2)ccc1Nc1ncc(I)c(Nc2ccccc2NS(C)(=O)=O)n1 | 75 | 6 | 49 | 23 | 9 |  |  |  |
| CS(=O)(=O)Nc1ccccc1Nc1nc(Nc2ccc(N3CCOCC3)c(Cl)c2)ncc1Cl | 19 | 8 | 44 | 14 | 6 |  |  |  |
| Cc1cc(Nc2ncc(Cl)c(Nc3ccccc3NS(C)(=O)=O)n2)ccc1N1CCOCC1 | 20 | 3 | 35 | 7 | 5 |  |  |  |
| COc1cc(N2CCOCC2)ccc1Nc1ncc(N(C)C)c(Nc2ccccc2NS(C)(=O)=O)n1 | 85 | 89 | 100 | 46 | 22 |  |  |  |
| CS(=O)(=O)Nc1ccccc1Nc1nc(Nc2ccc(N3CCOCC3)cc2O)ncc1Cl | 69 | 49 | 81 | 11 | 7 |  |  |  |
| CCc1cnc(Nc2ccc(N3CCOCC3)cc2OC)nc1Nc1ccccc1NS(C)(=O)=O | 100 | 79 | 81 | 24 | 16 |  |  |  |
| CS(=O)(=O)Nc1ccccc1Nc1nc(Nc2ccc(N3CCOCC3)cc2Cl)ncc1Cl | 84 | 32 | 74 | 7 | 0 |  |  |  |
| COc1cc(N2CCOCC2)ccc1Nc1ncc(COCC(F)(F)F)c(Nc2ccccc2NS(C)(=O)=O)n1 | 100 | 100 | 97 | 67 | 100 |  |  |  |
| CCOc1cc(N2CCOCC2)ccc1Nc1ncc(Cl)c(Nc2ccccc2NS(C)(=O)=O)n1 | 100 | 78 | 73 | 49 | 46 |  |  |  |
| COc1cc(N2CCOCC2)ccc1Nc1ncc(C(F)(F)F)c(Nc2ccccc2NS(C)(=O)=O)n1 | 58 | 10 | 47 | 22 | 6 |  |  |  |
| CCOC(=O)c1cnc(Nc2ccc(N3CCOCC3)cc2OC)nc1Nc1ccccc1NS(C)(=O)=O | 100 | 100 | 96 | 65 | 93 |  |  |  |
| COc1cc(N2CCOCC2)ccc1Nc1ncc(Cl)c(Nc2ccccc2NS(=O)(=O)C2CC2)n1 | 46 | 61 | 36 | 48 | 23 |  |  |  |
| CS(=O)(=O)Nc1ccccc1Nc1nc(Nc2ccc(N3CCOCC3)cc2)ncc1Cl | 21 | 6 | 42 | 2 | 9 |  |  |  |
| COc1cc(N2CCOCC2)ccc1Nc1ncc(Cl)c(Nc2ccccc2NS(=O)(=O)c2cn(C)cn2)n1 | 70 | 100 | 77 | 56 | 65 |  |  |  |
| COc1cc(N2CCOCC2)ccc1Nc1ncc(-c2cnn(C)c2)c(Nc2ccccc2NS(C)(=O)=O)n1 | 89 | 100 | 95 | 42 | 97 |  |  |  |
| Cc1cc(N2CCOCC2)ccc1Nc1ncc(Cl)c(Nc2ccccc2NS(C)(=O)=O)n1 | 43 | 20 | 67 | 7 | 10 |  |  |  |
| CS(=O)(=O)Nc1ccccc1Nc1nc(Nc2ccc(N3CCOCC3)c(C(F)(F)F)c2)ncc1Cl | 23 | 15 | 47 | 8 | 0 |  |  |  |

| SMILES | Activity (Plasmodium falciparum [1]) [%] | Activity (Plasmodium falciparum [2]) [%] | Activity (Plasmodium falciparum [3]) [%] | Activity (Plasmodium falciparum [4]) [%] | Activity (Plasmodium falciparum [5]) [%] | Activity (Plasmodium falciparum [6]) [%] | Activity (Plasmodium falciparum [7]) [%] | Activity (Plasmodium falciparum [8]) [%] |
| --- | --- | --- | --- | --- | --- | --- | --- | --- |
| COc1cc(N2CCOCC2)ccc1Nc1ncc(O)c(Nc2ccccc2NS(C)(=O)=O)n1 | 100 | 100 | 100 | 95 | 100 |  |  |  |
| COc1cc(N2CCOCC2)ccc1Nc1ncc(F)c(Nc2ccccc2NS(C)(=O)=O)n1 | 99 | 97 | 88 | 68 | 55 |  |  |  |
| CCOCc1cnc(Nc2ccc(N3CCOCC3)cc2OC)nc1Nc1ccccc1NS(C)(=O)=O | 97 | 100 | 100 | 100 | 89 |  |  |  |
| COc1cc(N2CCOCC2)ccc1Nc1ncc(N)c(Nc2ccccc2NS(C)(=O)=O)n1 | 97 | 100 | 100 | 93 | 96 |  |  |  |
| COc1cc(N2CCOCC2)ccc1Nc1ncc(Br)c(Nc2ccccc2NS(C)(=O)=O)n1 | 84 | 19 | 45 | 20 | 10 |  |  |  |
| COc1cc(Nc2ncc(Cl)c(Nc3ccccc3NS(C)(=O)=O)n2)ccc1N1CCOCC1 | 9 | 4 | 11 | 6 | 0 |  |  |  |
| CCS(=O)(=O)Nc1ccccc1Nc1nc(Nc2ccc(N3CCOCC3)cc2OC)ncc1Cl | 79 | 39 | 40 | 40 | 7 |  |  |  |
| COc1cc(N2CCOCC2)ccc1Nc1ncc(OC)c(Nc2ccccc2NS(C)(=O)=O)n1 | 75 | 81 | 83 | 40 | 44 |  |  |  |
| COc1cc(N2CCOCC2)ccc1Nc1ncc(Cl)c(Nc2ccccc2NS(=O)(=O)CC(C)C)n1 | 77 | 84 | 51 | 83 | 70 |  |  |  |
| COc1cc(N2CCOCC2)ccc1Nc1nccc(Nc2ccccc2NS(C)(=O)=O)n1 | 100 | 100 | 90 | 100 | 100 |  |  |  |
| COc1cc(N2CCOCC2)ccc1Nc1ncc(Cl)c(Nc2ccccc2NS(=O)(=O)c2ccccc2)n1 | 73 | 85 | 31 | 49 | 60 |  |  |  |
| COc1cc(N2CCOCC2)ccc1Nc1ncc(Cl)c(Nc2ccccc2NS(=O)(=O)NC(C)C)n1 | 80 | 90 | 45 | 80 | 82 |  |  |  |
| COc1cc(N2CCOCC2)ccc1Nc1ncc(C2CC2)c(Nc2ccccc2NS(C)(=O)=O)n1 | 100 | 100 | 100 | 100 | 48 |  |  |  |
| COc1cc(N2CCOCC2)ccc1Nc1ncc(Cl)c(-n2c(=O)[nH]c3ccccc32)n1 | 95 | 98 | 76 | 97 | 100 |  |  |  |
| COc1cc(N2CCOCC2)ccc1Nc1ncc(C#N)c(Nc2ccccc2NS(C)(=O)=O)n1 | 79 | 73 | 100 | 14 | 20 |  |  |  |
| COc1cc(N2CCOCC2)ccc1Nc1ncc(Cl)c(Nc2ccccc2NC(C)=O)n1 | 65 | 70 | 100 | 93 | 66 |  |  |  |
| CS(=O)(=O)Nc1ccccc1Nc1nc(Nc2ccc(N3CCOCC3)cc2F)ncc1Cl | 38 | 20 | 46 | 8 | 8 |  |  |  |
| COc1cc(N2CCOCC2)ccc1Nc1ncc(C(F)(F)F)c(Nc2ccccc2N)n1 | 81 | 83 | 86 | 84 | 61 |  |  |  |
| COc1cc(N2CCOCC2)ccc1Nc1ncc(Cl)c(Nc2ccccc2NC(N)=O)n1 | 96 | 11 | 87 | 81 | 17 |  |  |  |
| COc1cc(N2CCOCC2)ccc1Nc1ncc(C)c(Nc2ccccc2NS(C)(=O)=O)n1 | 100 | 88 | 82 | 44 | 24 |  |  |  |
